PubChem BioAssay AID504761 | Drosophila RNAi Screening Center, 2011
Assay: 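Fly genes whose silencing reduces dengue virus type 2 infection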 (primary screen). Cell system: D.Mel-2 cells from Drosophila. Reagent: long dsRNA against Drosophila genes. Treatment: infection with dengue virus type 2; dose and infection time not stated. Read-out: 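Per well on two replicate plates, imaging gave the percent of cells positive for viral envelope protein, ranked by infection, and a nuclear count of cells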. Direction: infection score: higher = more virus-infected cells; cell count: higher = more cells in the well. Call rule: 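Very low infection ranking in both replicate wells (chance probability at most 0.065), then a retest showing infection dropped 1.5-fold or more at p below 0.05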. Calls: active = confirmed: knock-down lowers infection; inactive = not picked or not confirmed.
The deposit covers about 22,000 reagents; this is a random part of those with a known target gene and a result. Over the whole deposit, 116 (0.52%) got an active call. 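Calls depend on retest data that are not deposited; infection was ranked per plate without normalising between plates; the unit of the infection score is not given.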 The raw values are shown without normalisation. Unmarked entries are inactive. Names joined by + are all predicted targets of the reagent. Not stated in the record: the amount of reagent, the time to read-out.

| gene | amplicon | infection score, replicate 1 | infection score, replicate 2 | cell count, replicate 1 | cell count, replicate 2 |
| --- | --- | --- | --- | --- | --- |
| Gr59e | DRSC04276 | 0.24 | 7.78 | 409 | 1517 |
| Pten | DRSC03402 | 1.65 | 2.71 | 6288 | 6022 |
| Pten | DRSC29950 | 36.4 | 16.7 | 5400 | 6060 |
| unc-13-4A | DRSC10201 | 6.35 | 5.43 | 6409 | 5175 |
| unc-13-4A | DRSC10202 | 0.68 | 4.39 | 6310 | 5785 |
| unc-13-4A | DRSC11013 | 1.88 | 13.2 | 6597 | 5562 |
| dpa | DRSC07604 | 12.2 | 5.65 | 6097 | 6280 |
| IRSp53 | DRSC10891 | 1.84 | 1.51 | 5755 | 6228 |
| CG18605 | DRSC06772 | 3.84 | 0.91 | 6172 | 6581 |
| CG18605 | DRSC26583 | 1.64 | 2.84 | 6341 | 5978 |
| CG8401 | DRSC07165 | 21.3 | 25.3 | 5018 | 4147 |
| CG12539 | DRSC19470 | 7.85 | 8.53 | 6255 | 6737 |
| CG12539 | DRSC29569 | 4.78 | 6.69 | 1089 | 4542 |
| CG11593 | DRSC08206 | 1.43 | 1.65 | 6160 | 5516 |
| CG5892 | DRSC15910 | 13.7 | 1.44 | 4982 | 5908 |
| CG5892 | DRSC24710 | 2.25 | 8.86 | 6799 | 5296 |
| Xport-A + Xport-B | DRSC15586 | 2.39 | 2.93 | 6478 | 6073 |
| CG14731 | DRSC14952 | 3.81 | 6.36 | 6773 | 6538 |
| Cht2 | DRSC08650 | 21.9 | 16.3 | 4532 | 4238 |
| Cht2 | DRSC24801 | 4.16 | 5.33 | 5933 | 6112 |
| eIF5B | DRSC08429 | 2.31 | 5 | 6284 | 6015 |
| eIF5B | DRSC08710 | 0.69 | 4.52 | 6623 | 5668 |
| eIF5B | DRSC25022 | 7.41 | 0.86 | 5882 | 5574 |
| Mau2 | DRSC15550 | 5.5 | 10.2 | 6894 | 6795 |
| CG13539 | DRSC04181 | 5.3 | 11.8 | 1114 | 6254 |
| CG13539 | DRSC28683 | 19 | 16.1 | 4346 | 4536 |
| Pde9 | DRSC19746 | 9.66 | 5.93 | 5940 | 5191 |
| Pde9 | DRSC19874 | 6.29 | 27.6 | 5516 | 5048 |
| Pde9 | DRSC19875 | – | 16.7 | 347 | 5768 |
| Pde9 | DRSC19876 | 11.9 | 13.1 | 3870 | 4287 |
| Pde9 | DRSC25304 | 1.24 | 2.07 | 6592 | 6182 |
| ine | DRSC00822 | 9.25 | – | 2280 | 447 |
| ine | DRSC28874 | 10.1 | 8.47 | 5306 | 4166 |
| beat-VI | DRSC14474 | 9.53 | 6.51 | 2749 | 1889 |
| beat-VI | DRSC14727 | 6.22 | 3.46 | 3378 | 6041 |
| CG12817 | DRSC14555 | 10.4 | 2 | 6298 | 6835 |
| Gbs-70E | DRSC11055 | 5.18 | 5.25 | 6254 | 6325 |
| Etf-QO | DRSC06111 | 7.35 | 27.6 | 5865 | 5746 |
| Zw | DRSC20303 | 6.45 | 2.03 | 6074 | 6312 |
| Zw | DRSC27667 | 8.08 | 4.75 | 5782 | 6361 |
| CG13130 (retired record) | DRSC02226 | 5.16 | 6.55 | 6417 | 6288 |
| CG13130 (retired record) | DRSC25021 | 6.14 | 3.93 | 6404 | 6356 |
| FAM21 | DRSC06623 | 6.61 | 14.2 | 6431 | 6220 |
| FAM21 | DRSC26589 | 2.35 | 4.61 | 5966 | 6003 |
| Mo25 | DRSC11224 | 8.66 | 20.5 | 5609 | 4970 |
| CG13160 | DRSC06284 | 15 | 3.54 | 6419 | 6275 |
| Vsp37A | DRSC18794 | 5.47 | 5.62 | 6660 | 6714 |
| CG31008 | DRSC14028 | 0.74 | – | 6348 | 6357 |
| CG31008 | DRSC27234 | 3.9 | 9.02 | 6256 | 6183 |
| CG9776 | DRSC12127 | 10.5 | 20 | 5809 | 5904 |
| CG11634 | DRSC03700 | 7.43 | 24.9 | 3390 | 5082 |
| LysE | DRSC08675 | 4.51 | 11.5 | 6519 | 5890 |
| Lsp1beta | DRSC00757 | 5.04 | 4.62 | 5815 | 6669 |
| Lsp1beta | DRSC24940 | 8.25 | 6.8 | 6193 | 5837 |
| SrpRalpha | DRSC20251 | 1.78 | 7.18 | 5902 | 6382 |
| MED15 | DRSC00267 | 4.41 | 9.41 | 5467 | 5619 |
| MED15 | DRSC23615 | 1.09 | 1.02 | 6601 | 6653 |
| pum | DRSC12726 | 4.92 | 7.31 | 6037 | 5129 |
| pum | DRSC17038 | 1.73 | 6.62 | 6928 | 6632 |
| pum | DRSC22758 | 1.79 | – | 6086 | 472 |
| pum | DRSC22794 | 3.11 | 16.8 | 5951 | 5366 |
| pum | DRSC23430 | 10.3 | 1.85 | 5518 | 6172 |
| CG5883 | DRSC10552 | 2.99 | 1.66 | 6116 | 6338 |
| Prim1 | DRSC11137 | 1.25 | 1.45 | 5185 | 5663 |
| CG9855 | DRSC12344 | 18.7 | 7.59 | 4809 | 6115 |
| CG9855 | DRSC25547 | 22.2 | 15.9 | 6854 | 5578 |
| bab1 | DRSC08709 | 2.75 | 6.68 | 6261 | 6275 |
| bab1 | DRSC21882 | 10.8 | 18.2 | 6401 | 3880 |
| bab1 | DRSC25457 | 2.76 | 3.34 | 6714 | 6703 |
| CG4950 | DRSC10463 | 0.93 | 0.75 | 5782 | 6005 |
| CG9616 | DRSC16518 | 4.7 | 8.91 | 6107 | 6409 |
| CG9616 | DRSC27905 | 2.38 | 42.1 | 6374 | 5501 |
| ppk16 | DRSC02736 | 4.19 | 7 | 6155 | 6513 |
| CG30048 | DRSC22205 | 6.22 | 1.28 | 6001 | 6537 |

Reformatted: results already given.
gene | amplicon | infection score, replicate 1 | infection score, replicate 2 | cell count, replicate 1 | cell count, replicate 2
CG9855 | DRSC25547 | 22.2 | 15.9 | 6854 | 5578
bab1 | DRSC08709 | 2.75 | 6.68 | 6261 | 6275
bab1 | DRSC21882 | 10.8 | 18.2 | 6401 | 3880
bab1 | DRSC25457 | 2.76 | 3.34 | 6714 | 6703
CG4950 | DRSC10463 | 0.93 | 0.75 | 5782 | 6005
